Results on one compound are retold here after US6803374B2, “Compounds useful for treating hepatitis C virus” (priority 2001, dated 2004).

Amino acid sequences for entries named in this document (tags omitted). Residues count along the entry.
UniProt Q9WMX2, 2420-2992 limits assumed: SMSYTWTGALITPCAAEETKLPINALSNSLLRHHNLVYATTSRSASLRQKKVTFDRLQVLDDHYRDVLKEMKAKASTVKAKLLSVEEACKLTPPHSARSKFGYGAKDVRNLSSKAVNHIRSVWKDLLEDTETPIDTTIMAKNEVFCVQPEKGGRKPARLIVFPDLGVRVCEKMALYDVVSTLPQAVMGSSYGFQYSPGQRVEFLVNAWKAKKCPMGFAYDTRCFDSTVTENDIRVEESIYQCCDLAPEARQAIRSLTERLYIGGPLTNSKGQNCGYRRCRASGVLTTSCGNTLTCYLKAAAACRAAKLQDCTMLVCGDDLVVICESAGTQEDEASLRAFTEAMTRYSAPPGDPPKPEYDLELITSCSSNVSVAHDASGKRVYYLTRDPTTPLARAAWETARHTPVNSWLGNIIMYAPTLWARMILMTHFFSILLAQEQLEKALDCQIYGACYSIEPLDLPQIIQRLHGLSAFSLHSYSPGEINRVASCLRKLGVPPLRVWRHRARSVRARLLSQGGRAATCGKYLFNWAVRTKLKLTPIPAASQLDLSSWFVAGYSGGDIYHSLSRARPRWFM

pIC50: −log10 of the molar value. The match of structure and compound is tentative.

This test deals with HCV NS5B RdRp genotype 1b (Hepatitis C virus genotype 1b, UniProt Q9WMX2). Kind of test: HCV NS5B RdRp enzyme assay. In kind it is biochemical. To be noted: HCV RdRp genotype 1b enzyme, C-terminal 18 aa truncated; average of single point IC50 values. As for the experimental part:
HCV NS5B RdRp cloning, expression and purification. The cDNA encoding the NS5B protein of HCV, genotype 1b, was cloned into the pET21a expression vector. The protein was expressed with an 18 amino acid C-terminal truncation to enhance the solubility. The E. coli competent cell line BL21(DE3) was used for expression of the protein. Cultures were grown at 37° C. for ˜4 hours until the cultures reached an optical density of 2.0 at 600 nm. The cultures were cooled to 20° C. and induced with 1 mM IPTG. Fresh ampicillin was added to a final concentration of 50 ug/ml and the cells were grown overnight at 20° C.
Cell pellets (3L) were lysed for purification to yield 15-24 mgs of purified NS5B. The lysis buffer consisted of 20 mM Tris-HCl, pH 7.4, 500 mM NaCl, 0.5% triton X-100, 1 mM DTT, 1 mM EDTA, 20% glycerol, 0.5 mg/ml lysozyme, 10 mM MgCl2, 15 ug/ml deoxyribonuclease I, and Complete TM protease inhibitor tablets (Roche). After addition of the lysis buffer, frozen cell pellets were resuspended using a tissue homogenizer. To reduce the viscosity of the sample, aliquots of the lysate were sonicated on ice using a microtip attached to a Branson sonicator. The sonicated lysate was centrifuged at 100,000×g for 1 hr at 4° C. and filtered through a 0.2 μm filter unit (Corning). […]
HCV NS5B RdRp enzyme assay. […] Plates were read on a Packard Top Count NXT. […]

Turning to `O=C(c1ccc(-c2ccc(Cl)cc2)c(COc2ccc(-c3nc4cc(-c5nnn[nH]5)ccc4n3C3CCCCC3)cc2)c1)N1CCC(O)CC1` [Example 48], the pIC50 was 6.07.
